From patent publication US20050143392A1, “Chrysogenazine obtained from fungus Penicillium chrysogenum having antibacterial activity” (Council of Scientific & Industrial Research, priority 2003, published 2005)

Tested on: Vibrio cholerae MCM B-322
Experiment: Antibacterial activity, simple disc diffusion (agar diffusion) technique
Conditions: agar plates; chrysogenazine 5-30 mcg/disc; penicillin 10 units/disc, amphicillin 10 mcg/disc, streptomycin 10 mcg/disc

Work on penicillin yielded a zone of inhibition of 0 mm.
